# Measurements published in US20120195879A1 (published 2012).
# Molecular target: human Kv1.3 (human, UniProt P22001 1-575)
# Assay: cell-based or functional assay
Binder,Kv1.1/Kv1.3 Selectivity Ratio by PX [ratio],"Potency Relative to ShK (WB, IL2) [ratio]"
Monovalent Fc/Fc-ShK(1-35 Q16K) heterodimer (Fc fusion) chain 1: ERKVECPPCPAPPVAGPSVFLFPPKPKDTLMISRTPEVTCVVVDVSHEDPEVQFNWYVDGVEVHNAKTKPREEQFNSTFRVVSVLTVVHQDWLNGKEYKCKVSNKGLPAPIEKTISKTKGQPREPQVYTLPPSREEMTKNQVSLTCLVKGFYPSDIAVEWESNGQPENNYKTTPPMLDSDGSFFLYSKLTVDKSRWQQGNVFSCSVMHEALHNHYTQKSLSLSPGK chain 2: ERKVECPPCPAPPVAGPSVFLFPPKPKDTLMISRTPEVTCVVVDVSHEDPEVQFNWYVDGVEVHNAKTKPREEQFNSTFRVVSVLTVVHQDWLNGKEYKCKVSNKGLPAPIEKTISKTKGQPREPQVYTLPPSREEMTKNQVSLTCLVKGFYPSDIAVEWESNGQPENNYKTTPPMLDSDGSFFLYSKLTVDKSRWQQGNVFSCSVMHEALHNHYTQKSLSLSPGKGGGGSGGGGSRSCIDTIPKSRCTAFKCKHSMKYRLSFCRKTCGTC,1220,2.39
Bivalent Fc-ShK(1-35 Q16K) homodimer (Fc fusion) ERKVECPPCPAPPVAGPSVFLFPPKPKDTLMISRTPEVTCVVVDVSHEDPEVQFNWYVDGVEVHNAKTKPREEQFNSTFRVVSVLTVVHQDWLNGKEYKCKVSNKGLPAPIEKTISKTKGQPREPQVYTLPPSREEMTKNQVSLTCLVKGFYPSDIAVEWESNGQPENNYKTTPPMLDSDGSFFLYSKLTVDKSRWQQGNVFSCSVMHEALHNHYTQKSLSLSPGKGGGGSGGGGSRSCIDTIPKSRCTAFKCKHSMKYRLSFCRKTCGTC,–,27.6
